Data set [1] concerns the target NRP1-BD (the b1 domain of NRP1) (Homo sapiens, UniProt O14786). In words: Microscale thermophoresis (MST) binding to NRP1-BD. To be noted: read-out: NRP1-BD Kd, mean ± SD (n = 3). On the technique in general: In MST a laser heats a spot of the sample, and binding alters the fluorescence response.
Data set [2] deals with AC16. In words: MTT cytotoxicity assay, AC16 cells. To be noted: up to 80 μM, 48 h. In general terms: Tetrazolium dyes change colour on reduction, which living cells bring about.
For data set [3], the system named is FHs 74 Int. In words: MTT cytotoxicity assay, FHs 74 Int cells. As to conditions: up to 80 μM, 48 h.
Data set [4] relates to A549. Description: MTT cytotoxicity assay, A549 cells. As to conditions: up to 80 μM, 48 h.

Amino acid sequences for entries named in this document (tags omitted). Residues count along the entry.
UniProt O14786, 275-424 limits assumed: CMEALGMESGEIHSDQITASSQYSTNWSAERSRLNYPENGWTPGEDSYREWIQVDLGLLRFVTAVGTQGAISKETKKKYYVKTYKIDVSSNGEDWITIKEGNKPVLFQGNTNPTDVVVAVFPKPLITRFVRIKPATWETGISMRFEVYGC

The Kd is the concentration at which binding is half-saturated.

Regarding `CC[C@H](C)[C@H](NC(=O)[C@H](Cc1ccc(O)cc1)NC(=O)[C@@H](NC(=O)[C@H](CCCCN)NC(=O)[C@H](CC(N)=O)NC(=O)[C@H](CCC(N)=O)NC(C)=O)C(C)C)C(=O)N[C@@H](CC(=O)O)C(=O)N[C@@H](CCCCN)C(=O)N[C@@H](Cc1ccc(O)cc1)C(=O)N[C@@H](CC(N)=O)C(=O)N[C@@H](Cc1c[nH]cn1)C(=O)N[C@@H](CCC(=O)O)C(=O)N[C@@H](C)C(=O)N[C@@H](CCC(N)=O)C(=O)N[C@@H](CC(=O)O)C(=O)N[C@@H](CC(C)C)C(=O)N[C@@H](Cc1ccccc1)C(=O)N[C@@H](Cc1ccc(O)cc1)C(=O)N[C@@H](CCC(N)=O)C(=O)N[C@@H](CO)C(=O)N[C@@H](C)C(=O)N[C@@H](CC(C)C)C(=O)N[C@@H](CCCCN)C(=O)N[C@@H](C)C(=O)N[C@@H](Cc1c[nH]cn1)C(=O)N[C@@H](CCCNC(=N)N)C(=O)NCC(=O)N[C@@H](CC(N)=O)C(=O)N[C@@H](CCCNC(=N)N)C(=O)N[C@@H](CCCNC(=N)N)C(=O)N[C@@H](C)C(=O)N[C@@H](CCCNC(=N)N)C(=O)O` [RN-1], the Kd in data set [1] worked out at 24.1 nM. With `CC(=O)N[C@@H](CCC(=O)O)C(=O)N[C@@H](CCCCN)C(=O)N[C@@H](CO)C(=O)N[C@H](C(=O)N[C@@H](CC(C)C)C(=O)N[C@@H](CCCCN)C(=O)N[C@@H](CC(=O)O)C(=O)N[C@@H](CCCNC(=N)N)C(=O)N[C@@H](Cc1ccccc1)C(=O)N[C@@H](CC(N)=O)C(=O)N[C@@H](Cc1c[nH]cn1)C(=O)N[C@@H](CCC(=O)O)C(=O)N[C@@H](C)C(=O)N[C@@H](CCC(N)=O)C(=O)N[C@@H](CC(=O)O)C(=O)N[C@@H](CC(C)C)C(=O)N[C@@H](CCCCN)C(=O)N[C@@H](Cc1ccc(O)cc1)C(=O)N[C@@H](CCC(N)=O)C(=O)N[C@@H](CC(=O)O)C(=O)N[C@@H](CO)C(=O)N[C@@H](CC(C)C)C(=O)N[C@@H](C)C(=O)N[C@@H](CO)C(=O)N[C@@H](Cc1ccc(O)cc1)C(=O)N[C@@H](CCCNC(=N)N)C(=O)NCC(=O)N[C@@H](CCCCN)C(=O)N[C@@H](CCCNC(=N)N)C(=O)N1CCC[C@H]1C(=O)N1CCC[C@H]1C(=O)N[C@@H](CCCNC(=N)N)C(=O)O)[C@@H](C)O` [RN-2], the Kd in data set [1] came out at 87.1 nM. Same read-out and setting: to `CC[C@H](C)[C@H](NC(=O)[C@H](CC(N)=O)NC(=O)[C@H](CCCNC(=N)N)NC(=O)[C@H](CCC(N)=O)NC(C)=O)C(=O)N[C@@H](Cc1ccc(O)cc1)C(=O)N[C@@H](CC(C)C)C(=O)N[C@@H](CC(=O)O)C(=O)N[C@@H](CCCNC(=N)N)C(=O)N[C@@H](Cc1c[nH]cn1)C(=O)N[C@@H](CC(N)=O)C(=O)N[C@@H](Cc1c[nH]cn1)C(=O)N[C@@H](CCC(=O)O)C(=O)N[C@@H](C)C(=O)N[C@@H](CCC(=O)O)C(=O)N[C@@H](CC(=O)O)C(=O)N[C@@H](CC(C)C)C(=O)N[C@@H](CCCCN)C(=O)N[C@@H](Cc1ccc(O)cc1)C(=O)N[C@@H](CCC(N)=O)C(=O)N[C@H](C(=O)N[C@@H](C)C(=O)N[C@@H](CC(C)C)C(=O)N[C@@H](C)C(=O)N[C@@H](CO)C(=O)N[C@@H](Cc1ccccc1)C(=O)N[C@@H](CCCNC(=N)N)C(=O)N1CCC[C@H]1C(=O)N[C@@H](C)C(=O)N[C@@H](CCCCN)C(=O)N1CCC[C@H]1C(=O)N[C@@H](C)C(=O)N[C@@H](CCCNC(=N)N)C(=O)O)[C@@H](C)O` [RN-3] belongs 91.4 nM. As to `CC(=O)N[C@@H](CCC(=O)O)C(=O)N[C@@H](C)C(=O)N[C@@H](CCCNC(=N)N)C(=O)N[C@H](C(=O)N[C@@H](Cc1ccccc1)C(=O)N[C@@H](CC(C)C)C(=O)N[C@@H](CC(=O)O)C(=O)N[C@@H](CCCCN)C(=O)N[C@@H](Cc1ccc(O)cc1)C(=O)N[C@@H](CC(N)=O)C(=O)N[C@@H](Cc1c[nH]cn1)C(=O)N[C@@H](CCC(=O)O)C(=O)N[C@@H](C)C(=O)N[C@@H](CCC(=O)O)C(=O)N[C@@H](CC(=O)O)C(=O)N[C@@H](CC(C)C)C(=O)N[C@@H](Cc1ccc(O)cc1)C(=O)N[C@@H](Cc1ccc(O)cc1)C(=O)N[C@@H](CCC(N)=O)C(=O)N[C@@H](CO)C(=O)N[C@@H](CO)C(=O)N[C@@H](CC(C)C)C(=O)N[C@@H](C)C(=O)N[C@@H](CO)C(=O)N[C@@H](Cc1c[nH]c2ccccc12)C(=O)NCC(=O)N[C@@H](CO)C(=O)N1CCC[C@H]1C(=O)N[C@@H](CCCNC(=N)N)C(=O)N[C@@H](CCCNC(=N)N)C(=O)N[C@@H](C)C(=O)N[C@@H](CCCNC(=N)N)C(=O)O)[C@@H](C)O` [RN-4], the “cytotoxicity to AC16 (MTT)” value in data set [2] was “did not show any observable cytotoxicity”. Moreover, the “cytotoxicity to FHs 74 Int (MTT)” value in data set [3] is recorded as “did not show any observable cytotoxicity”. In addition, the Kd in data set [1] was 16.1 nM. For the same compound, the “cytotoxicity to A549 (MTT)” value in data set [4] is listed as “did not show any observable cytotoxicity”.

As for `CC(=O)N[C@@H](CCC(=O)O)C(=O)N[C@H](C(=O)N[C@@H](CCC(N)=O)C(=O)N[C@H](C(=O)N[C@@H](CC(C)C)C(=O)N[C@@H](CC(C)C)C(=O)N[C@@H](CC(=O)O)C(=O)N[C@@H](CCCCN)C(=O)N[C@@H](CC(C)C)C(=O)N[C@@H](CC(N)=O)C(=O)N[C@@H](Cc1c[nH]cn1)C(=O)N[C@@H](CCC(=O)O)C(=O)N[C@@H](C)C(=O)N[C@@H](CCC(=O)O)C(=O)N[C@@H](CC(=O)O)C(=O)N[C@@H](CC(C)C)C(=O)N[C@@H](CCCCN)C(=O)N[C@@H](Cc1ccc(O)cc1)C(=O)N[C@@H](CCC(N)=O)C(=O)N[C@@H](CO)C(=O)N[C@@H](C)C(=O)N[C@@H](CC(C)C)C(=O)N[C@@H](C)C(=O)N[C@@H](CO)C(=O)N[C@@H](Cc1c[nH]cn1)C(=O)N[C@@H](CCCNC(=N)N)C(=O)N[C@H](C(=O)N[C@@H](CCCNC(=N)N)C(=O)N[C@@H](CCCNC(=N)N)C(=O)N1CCC[C@H]1C(=O)N1CCC[C@H]1C(=O)N[C@@H](CCCNC(=N)N)C(=O)O)C(C)C)C(C)C)[C@@H](C)O` [RN-5], the Kd in data set [1] stood at 85.1 nM.

Values taken from publication PMC10193894 (Journal of Enzyme Inhibition and Medicinal Chemistry, 2023).
